{"source": "patent US12350260B2", "about": "(priority 2019, dated 2025)", "key": {"PAR-2 [1]": {"system": "PAR-2", "settings": "10 nM P-CTX-2, 20 min"}, "[2]": {"system": "primary human epidermal keratinocytes", "settings": "10 nM P-CTX-2 alone, 45 min after application"}, "[3]": {"system": "total cathepsin activity, including cathepsins B and L", "test": "Total cathepsin activity in co-culture supernatants (substrate Z-Phe-Arg-AMC)", "settings": "in presence of PbTx-1 or P-CTX-2; data not shown"}, "[4]": {"system": "keratinocyte monocultures", "test": "P-CTX-2-induced SP release in keratinocyte monocultures (EIA)", "settings": "90-min exposure to 10 nM P-CTX-2 versus MeOH 0.05%"}, "[5]": {"system": "Cat-S activity in sensory neurons", "test": "Cathepsin S activity in supernatant of neurons alone", "settings": "10 nM P-CTX-2 for 90 minutes"}, "[6]": {"system": "co-cultured DRG neurons and keratinocytes"}, "PAR-2 [7]": {"system": "PAR-2", "test": "Immunocytochemistry and confocal microscopy of PAR-2 internalization in human primary keratinocytes", "settings": "10 nM, 45 min at 37° C."}, "[8]": {"system": "Cat-S activity in keratinocytes", "test": "Cathepsin S activity in supernatant of keratinocytes alone", "settings": "10 nM P-CTX-2 for 90 minutes"}, "[9]": {"system": "Cat-S activity in co-culture supernatant", "test": "Cathepsin S (Cat-S) activity in co-culture supernatants"}}, "note": "“And” between values parts separate entries of the source, which are not always exact repeats. Equal values may be shown once."}
{"substance": "52-epi-54-deoxyCTX1-b", "values": [{"measurement": "membrane expression of PAR-2", "setting": "PAR-2 [1]", "value": "42.3±7.9", "unit": "%"}, {"measurement": "average amplitude of the calcium plateau (ΔF/F0)", "setting": "[2]", "value": "0.87±0.1 and 0.86±0.10"}, {"measurement": "global cathepsin activity", "setting": "[3]", "value": "not modified"}, {"measurement": "SP release from keratinocyte monocultures", "setting": "[4]", "value": "did not release significant amounts of SP"}, {"measurement": "Slope", "setting": "[5]", "value": 192.41}, {"measurement": "% increased Cat-S activity", "setting": "[5]; methanol control = 100", "value": 143, "unit": "%"}, {"measurement": "SP levels in the optimized co-culture versus the prototypical model", "setting": "[6]; 10 nM P-CTX-2", "value": 8, "unit": "fold"}, {"measurement": "SP release in the co-culture versus the sensory neuron monoculture", "setting": "[6]; 10 nM P-CTX-2, 90 min", "value": 6, "unit": "fold"}, {"measurement": "SP release in the co-culture relative to monocultures (normalized)", "setting": "[6]; 10 nM P-CTX-2, 90 min, FIG. 4b", "value": "598.4±223.3", "unit": "%"}, {"measurement": "P-CTX-2-induced SP levels released in the optimized co-culture", "setting": "[6]; 10 nM P-CTX-2, 90 min, new co-culture model", "value": "561.7 ± 97.4", "unit": "pg/mL"}, {"measurement": "P-CTX-2-induced SP levels released in the prototypical model (Le Garrec et al. 2016)", "setting": "[6]; 10 nM P-CTX-2, 90 min, old co-culture model", "value": "67.9 ± 22.5", "unit": "pg/mL"}, {"measurement": "percentage of rat sensory neurons in which P-CTX-2 elicited a calcium response", "setting": "DRG neurons; 10 nM P-CTX-2, 871 of 1720 analyzed cells", "value": "50.6±4.3% and 50.6%"}, {"measurement": "DRG neurons responding with a second peak that displayed a plateau", "setting": "DRG neurons; 10 nM P-CTX-2 alone", "value": 67.8, "unit": "%"}, {"measurement": "DRG neurons responding with the first peak that displayed the second peak", "setting": "DRG neurons; 10 nM P-CTX-2 alone", "value": 83.2, "unit": "%"}, {"measurement": "average amplitude of the second peak (ΔF/F0)", "setting": "DRG neurons; 10 nM P-CTX-2 alone", "value": "0.75±0.06"}, {"measurement": "average amplitude value of the plateau (ΔF/F0)", "setting": "DRG neurons; 10 nM P-CTX-2 alone", "value": "0.45±0.03"}, {"measurement": "percentage of the studied population displaying the plateau", "setting": "DRG neurons; 10 nM P-CTX-2 alone", "value": "28.5±3.4", "unit": "%"}, {"measurement": "percentage of the studied population displaying the second peak", "setting": "DRG neurons; 10 nM P-CTX-2 alone", "value": "42.1±4.7", "unit": "%"}, {"measurement": "average amplitude of the P-CTX-2-elicited first peak (ΔF/F0)", "setting": "DRG neurons; 10 nM P-CTX-2 alone, responding cells", "value": "1.00±0.08"}, {"measurement": "PAR-2 internalization", "setting": "PAR-2 [7]", "value": "could internalize PAR-2"}, {"measurement": "Slope", "setting": "[8]", "value": 78.74}, {"measurement": "% increased Cat-S activity", "setting": "[8]; methanol control = 100", "value": 1493, "unit": "%"}, {"measurement": "catalytic activity (reaction rate) of Cat-S in the co-culture supernatant, % of vehicle control", "setting": "[9]; 10 nM, 90-min exposure", "value": "148.9±21.9", "unit": "%"}, {"measurement": "% increased Cat-S activity", "setting": "[9]; co-culture, 10 nM P-CTX-2 for 90 minutes, methanol control = 100", "value": 192, "unit": "%"}, {"measurement": "Slope", "setting": "[9]; co-culture, 10 nM P-CTX-2 for 90 minutes, slope defined in b141 as RFU per minute", "value": 126.61}]}
